Laboratory results as given in patent US20050244490A1, “Dosing methods for beta-D-2',3'-dideoxy-2',3'-didehydro-5-fluorocytidine antiviral therapy” (priority 2003, published 2005).

Test system: acutely HIV-1 infected human PBM cells
Test: Median effect / combination index study with Racivir
Assay type: cell-based
Details: Day 5; assays (1), (2), (3)

How did the “m ± SE (slope of median effect plot)” value turn out when Cc1cn([C@H]2C=C[C@@H](CO)O2)c(=O)[nH]c1=O [D4T, 2′,3′-didehydro-2′,3′-dideoxythymidine] was run?
Its value is 1.2 ± 0.08.

For Nc1nc(=O)n(C2CSC(CO)O2)cc1F (stereo not shown) [Racivir], which “m ± SE (slope of median effect plot)” value is on record?
Its value is 0.87 ± 0.14 and 1.4 ± 0.14 and 0.88 ± 0.10.

OC[C@@H]1CC[C@H](n2cnc3c(O)ncnc32)O1 [DDI, 2′,3′-dideoxyinosine] was tested. Which “m ± SE (slope of median effect plot)” value did it give?
The value was 1.2 ± 0.02.

With Nc1nc(=O)n(C2C=CC(CO)O2)cc1F [β-D-D4FC, β-D-2′,3′-Didehydro-2′,3′-dideoxy-5-fluorocytidine] as the compound, how does the “m ± SE (slope of median effect plot)” value read?
Its value is 1.1 ± 0.12 and 1.3 ± 0.20.

“And” between values parts separate entries of the source, which are not always exact repeats. Equal entries are not always repeated.
